Measured values from several laboratories, pooled; numbers as filed in NIAID ChemDB.

Shared fields: tests in culture

Rows are shuffled and stem from different studies. A number after MIC or MFC names an inhibition level or a share of isolates. Zone: diameter of growth inhibition. Inhibition is in % at the dose shown (toxicity tests: loss of growth or viability).

O=C(CCn1ccnc1)c1ccc2ccccc2c1 ; method: broth dilution ; strain or isolate: RTCC 1377 ; measure: MIC ; species: Candida guilliermondii ; value: 64 µg/mL
CC(C)(O)c1cn(-c2ccc3ccccc3c2)nn1 ; method: broth dilution ; strain or isolate: ATCC 22019 ; dose: 2048 µg/mL ; measure: inhibition ; species: Candida parapsilosis ; value: 0%
NC(=NC1CCCC1)c1ccc(-c2ccc(-c3ccc(C(N)=NC4CCCC4)cc3)o2)cc1 ; strain or isolate: 21 strains ; measure: Geometric mean MIC ; species: Candida albicans ; value: 14.18 µg/mL
C=CCc1ccc(OC)c(OC)c1 ; method: turbidity ; strain or isolate: 2768 ; measure: MIC90 ; species: Candida tropicalis ; value: 340 µg/mL
COc1ccc(C=NNC(=O)c2snnc2C(F)(F)F)cc1 ; method: agar diffusion / agar ; strain or isolate: NCIM 3462 ; dose: 100 µg/mL ; measure: zone ; species: Candida rugosa ; value: 0 mm
OC(CCn1ccnc1)c1cccc(C(O)c2ccc(Cl)c(Cl)c2)c1 ; method: broth dilution ; strain or isolate: RTCC 1377 ; measure: MIC ; species: Candida guilliermondii ; value: 64 µg/mL
CCC(C)n1ncn(-c2ccc(N3CCN(c4ccc(OC[C@H]5CO[C@](Cn6cncn6)(c6ccc(Cl)cc6Cl)O5)cc4)CC3)cc2)c1=O ; method: broth dilution ; strain or isolate: Fluconazole-resistant ; measure: MIC50 ; species: Candida spp. ; value: 2 µg/mL
C/C(=N/O)C(Cl)(Cl)Cl ; measure: MIC ; species: Candida lipolytica ; value: 3220 µM
CC(=NNC(=O)c1snnc1C(F)(F)F)c1ccccc1 ; method: agar diffusion / agar ; strain or isolate: NCIM 3462 ; dose: 100 µg/mL ; measure: zone ; species: Candida rugosa ; value: 0 mm
O/N=C/c1ccc(O)cc1 ; measure: MIC100 ; species: Candida famata ; value: >7290 µM
O=C(NN=Cc1ccc(Br)cc1)c1snnc1C(F)(F)F ; method: agar diffusion / agar ; strain or isolate: NCIM 3462 ; dose: 150 µg/mL ; measure: zone ; species: Candida rugosa ; value: 0 mm
CC(C)(O)c1cn(-c2ccc(Cl)cc2)nn1 ; method: broth dilution ; strain or isolate: ATCC 22019 ; measure: MIC ; species: Candida parapsilosis ; value: 256 µg/mL
O=C1c2ccccc2CC1Cn1ccnc1 ; method: broth dilution ; strain or isolate: RTCC 1377 ; measure: MIC ; species: Candida guilliermondii ; value: >64 µg/mL
CC(=NNC(=O)c1snnc1C(F)(F)F)c1ccc([N+](=O)[O-])cc1 ; method: agar diffusion / agar ; strain or isolate: NCIM 3462 ; dose: 100 µg/mL ; measure: zone ; species: Candida rugosa ; value: 0 mm
O/N=C\c1ccc(O)cc1 ; method: broth dilution ; measure: MFC ; species: Candida lipolytica ; value: >7290 µM
CC(C)(O)c1cn(-c2ccccc2)nn1 ; method: broth dilution ; strain or isolate: URM 4607 ; dose: 2048 µg/mL ; measure: inhibition ; species: Candida parapsilosis ; value: 0%
OC(CCn1ccnc1)c1ccc(-c2ccccc2)cc1 ; method: broth dilution ; strain or isolate: RTCC 1019 ; measure: MIC ; species: Candida kefyr ; value: 32 µg/mL
O=[N+]([O-])c1ccc(/C=N\O)cc1 ; measure: MIC ; species: Candida famata ; value: 3010 µM
Cc1ccc(C(O)c2cccc(C(O)CCn3ccnc3)c2)cc1 ; method: broth dilution ; strain or isolate: RTCC1248 ; measure: MIC ; species: Candida guilliermondii ; value: >64 µg/mL
CN(C)c1ccc(C=NNC(=O)c2snnc2C(F)(F)F)cc1 ; method: agar diffusion / agar ; strain or isolate: NCIM 3462 ; dose: 100 µg/mL ; measure: zone ; species: Candida rugosa ; value: 0 mm
O=C(CCn1ccnc1)c1ccc(Br)cc1 ; method: broth dilution ; strain or isolate: RTCC 1074 ; measure: MIC ; species: Candida kefyr ; value: 8 µg/mL
COc1ccc(/C=N/O)cc1 ; measure: MIC ; species: Candida lipolytica ; value: 6620 µM
C[C@@H](c1ncncc1F)[C@](O)(Cn1cncn1)c1ccc(F)cc1F ; method: broth dilution ; strain or isolate: Fluconazole-resistant ; measure: MIC90 ; species: Candida spp. ; value: >4 µg/mL
O/N=C\c1ccccc1O ; measure: MIC ; species: Candida lipolytica ; value: 1800 µM
CC(C)(O)c1cn(-c2ccc([N+](=O)[O-])cc2)nn1 ; method: broth dilution ; strain or isolate: URM 3627 ; dose: 2048 µg/mL ; measure: inhibition ; species: Candida parapsilosis ; value: 0%

2 of the rows above, restated:

CC(C)(O)c1cn(-c2ccccc2)nn1 ; method: broth dilution ; strain or isolate: URM 4607 ; dose: 2048 µg/mL ; measure: inhibition ; species: Candida parapsilosis ; value: 0%
CCC(C)n1ncn(-c2ccc(N3CCN(c4ccc(OC[C@H]5CO[C@](Cn6cncn6)(c6ccc(Cl)cc6Cl)O5)cc4)CC3)cc2)c1=O ; method: broth dilution ; strain or isolate: Fluconazole-resistant ; measure: MIC50 ; species: Candida spp. ; value: 2 µg/mL